Laboratory results as given in patent US20240254204A1 (NATIONAL UNIVERSITY OF SINGAPORE, published 2024).

B1: Antibody 3 (SS6V3-G2) (antibody, V domains shown)
VH: QVQLVQSGAEVKRPGASVKVSCKASGYSFTNSGITWVRQAPGQGLEWMGGTNFYNGITNYPQNIQGRVTMTTDTSTNTAYLELTSLRSEDTAMYYCALNRVAIFNDGYNPLGYWGQGTLVTVSS
VL: DIVMTQSPDSLAVSLGERATINCKSSQSVLYSSNNKNYLAWYQQKPGQPPKLLIYWASSRESGVPDRFSGSGSGTDFTLTIDRLQAEDVAIYYCQQYFSSPFSFGGGTKVEIK
B2: Antibody 11 (SS6V11-E7) (antibody, V domains shown)
VH: QVQLQESGPGLVKPSETLSLTCTVSGGFIGPHYWSWVRQPPGKGLEWIGYIYISGSTNYNPSLKSRLTISVDMSKSQFSLTLSSATAADTAVYYCARGGGYLETGPFEYWGQGTLVTVSS
VL: DIVMTQSPLSLPVTPGEPASISCRSSQSLLQNNGYNYLAWYLQKPGQSPQLLIYLSSTRASGVPDRFSGSGSGTDFTLKISRVEAEDVGVYYCMQSLQIPGTFGQGTRLEIK
B3: Antibody 13 (SS6V13-F1) (antibody, V domains shown)
VH: QVQLQESGPGLVKPSETLSLTCSVSGVSILGSYWGWIRQPPGTGLQWIGYIYFSENTNYNPSLQSRVTMSLDTSKNLLSLKLSSVTAADTAVYYCARGGGYLETGPFDSWGQGTLVTVSS
VL: DIVMTQSPLSLPVTPGEPASISCRSSQGLVQSNGYNYLAWYLQKPGQSPQLLIYLGSNRASGVPDRFSGSGSGTDFTLKISRVEAEDVGVYYCMQGLQTPGTFGQGTRLEIK
B4: Antibody 20 (SS6V20-F5) (antibody, V domains shown)
VH: QVQLQESGPGLVKPSETLSLTCTVSGGSIIGYYWSWIRQPPGKGLEWIGYIYFSANTNYNPSLKSRVTMSVDMSKKQFSLKLRSVTAADTAVYYCARGGGYLETGPLDFWGQGILVTVSS
VL: DIVMTQSPLSLPVTPGEPASISCRSSQSLMQLNGYNYLAWYLQRPGQSPQLLIYLGSTRASGVPDRFSGSGSGTDFTLKITRVEAEDVGVYYCMQGLQIPGTFGQGTRLEIK
B5: Antibody 4 (SS6V4-A1) (antibody, V domains shown)
VH: EVQLVQSGAEVKKPGEALKISCQGSGYTFSMYWIAWVRQMPGKGLEWMGIIYPDDSDRRYSPSFQGQVTISVDKSISTAYLQWSSLKASDTAIYYCARLQNGYSYGLLENWGQGTLVTVSS
VL: DIVMTQSPDSLTVSLGERATINCKSSQSTLYRSNNKNYLAWYQQKPGQPPKLLINWASTREYGVPDRFSGSGSGTDFTLTISSLQAEDVAVYYCQQYYSYPWTFGQGTKVEIK

How the values were obtained:
SARS-CoV-2 RBD = SARS-CoV-2 RBD (SARS-CoV-2); assay: sVNT, cPass kit with SARS-CoV-2 RBD-HRP; HEK293 supernatant
SARS-CoV-1 RBD = SARS-CoV-1 RBD (SARS-CoV); assay: sVNT, cPass kit format with SARS-CoV-1 RBD-HRP; HEK293 supernatant

Row | Binder | sVNT SARS-CoV-2 (% I) (SARS-CoV-2 RBD) | sVNT SARS-CoV-1 (% I) (SARS-CoV-1 RBD)
1 | B1 | 17.7% | 8.88%
2 | B2 | 96.2% | 96.9%
3 | B3 | 94.5% | 95.9%
4 | B4 | 96.1% | 96.7%
5 | B5 | 22.4% | 15.3%
